Measurements: US20230348447A1, “OXAZOLIDINONE COMPOUNDS, LIPOSOME COMPOSITIONS COMPRISING OXAZOLIDINONE COMPOUNDS AND METHOD OF USE THEREOF” (priority 2020, published 2023)

Tested on: M. Tuberculosis Erdman or H37Rv vs VERO or HepG2 cells
Test: Selectivity Index (mammalian cell IC50 / bacterial MIC)
Set-up: species or system Mycobacterium tuberculosis

| SMILES | Selectivity Index (SI) Erd/HepG2 | Selectivity Index (SI) Erd/VERO |
| --- | --- | --- |
| Cl.Cn1nnc(-c2ccc(-c3ccc(N4C[C@H](CNC(=O)CCN)OC4=O)cc3F)cn2)n1 [AKG-17] | 18.7 | >125 |
| Cl.Cn1nnc(-c2ccc(-c3ccc(N4C[C@H](CNC(=O)CCCN)OC4=O)cc3F)cn2)n1 [AKG-18] | 4.8 | >125 |
